# Patent US20250197484A1 (ECO ANIMAL HEALTH, published 2025)
# B1: Net_14 (VHH)
# VHH: QVQLVESGGGLVQAGGSVRLSCVASGLTFSGYSLGWFRQAPGKEREGVSYISSSGMITDYADSVKGRVTISRDDAKSTMYLQMNSLKPEDTAVYYCAARFPRPRSWLSTDSYNYWGQGAQVTVSS
# B2: Net_83 (VHH)
# VHH: QVQLVESGGGLVQAGESLRLSCAASGSIRSISFMNWYRQQPGKQRELVAGINQIGNTNYAGSVKGRFTISRDNAKNTVYLQMNSLKPEDTAVYYCNVIVRGTVSPFQFWGQGTQVTVSS
# Target: Clostridium perfringens NetB toxin (necrotic enteritis B-like toxin) (Clostridium perfringens)
# Experiment: cell-based or functional assay
Binder,"IC50, inhibition of NetB-induced chicken RBC lysis, pH 6.0, NetB 20 nM [nM]","IC50, inhibition of NetB-induced chicken RBC lysis, pH 7.4, NetB 20 nM [nM]","Molar ratio to NetB @ 20 nM, pH 6.0","Molar ratio to NetB @ 20 nM, pH 7.4"
B1,32.2,74,1.61 VHH:NetB molar ratio,3.7 VHH:NetB molar ratio
B2,103,138,5.13 VHH:NetB molar ratio,6.88 VHH:NetB molar ratio
